In publication PMC10886162, “Synthesis of Novel Artemisinin, Ciprofloxacin, and Norfloxacin Hybrids with Potent Antiplasmodial Activity” (Antibiotics, 2024):

Test system: CQ-resistant P. falciparum FcB1 strain
Experiment: In vitro growth inhibition of P. falciparum FcB1 ([3H]-hypoxanthine incorporation)
Assay type: cell-based, Plasmodium falciparum
Description: The chloroquine-resistant FcB1/Colombia and Dd2/Indochina strains of Plasmodium falciparum were obtained from the Protist Collection of the National Museum of Natural History, Paris, France (n° MNHN-CEU-2016-224-PfFCB1 and MNHN-CEU-2016-222-PfDD2). The parasites were maintained in vitro on human erythrocytes in RPMI 1640 medium supplemented by 8% (v/v) heat-inactivated human serum, at 37 °C, under an atmosphere of 5% CO2. The human red blood cells and serum were provided by the Établissement Français du Sang under the C-CPSL-UNT approval no. 13/EFS/126. The in vitro drug susceptibility assays were measured by [^3H]-hypoxanthine incorporation, as previously described. The drug stock solutions were prepared in DMSO. Briefly, the assays were performed in 96-well plates. The compounds were diluted in the culture medium (100 μL per well). The parasite cultures (100 μL, 2% parasitaemia, and 1% final hematocrit) were then added to each well and incubated for 24 h at 37 °C prior to the addition of 0.5 μCi of [^3H]- hypoxanthine (GE Healthcare, Paris, France, 1 to 5 Ci·mmol/mL) per well. After a further incubation of 24 h, the plates were frozen and thawed. The cell lysates were then collected onto fiberglass filters and counted in a liquid scintillation spectrometer. The growth inhibition for each drug concentration was determined through a comparison of the radioactivity incorporated in the treated culture with that in the control culture maintained on the same plate. The drugs were first evaluated for a range of fixed concentrations of 50, 5, 0.5, 0.05, and 0.005 μg/mL. […] The IC50 value was obtained from the drug concentration–response curve, and the results were expressed in μM or nM as the mean values ± standard deviations determined from several independent experiments. Artesunate (46) was used as an antimalarial drug control.

C[C@@H]1CCC2[C@@H](C)[C@@H](CC(=O)N3CCN(c4cc5c(cc4F)c(=O)c(C(=O)O)cn5C4CC4)CC3)O[C@@H]3O[C@@]4(C)CCC1[C@@]23OO4 (stereo partly drawn) [Compound 12, 1-cyclopropyl-6-fluoro-4-oxo-7-(4-(2-((3R,6R,9R,10R,12R,12aR)-3,6,9-trimethyldecahydro-12H-3,12-epoxy[1,2]dioxepino[4,3-i]isochromen-10-yl)acetyl)piperazin-1-yl)-1,4-dihydroquinoline-3-carboxylic acid]
times more potent than compound 13: around 200

O=C(c1cn(C2CC2)c2cc(N3CCNCC3)c(F)cc2c1=O)N1CCN(c2ccnc3cc(Cl)ccc23)CC1 [Compound 42]
times more active than compound 38: 148
times more potent than compound 39: 37

CCCCOC(=O)c1cn(C2CC2)c2cc(N3CCNCC3)c(F)cc2c1=O [Compound 39]
fold better activity than compound 38 (n-Bu ester vs ethyl ester trifluoroacetate salt): > 3.9
